Reference: PubChem BioAssay AID504761 (Drosophila RNAi Screening Center, 2011)
The screen tested about 22,000 reagents; below is a random part of those that have a named target and a result. Over the whole deposit, 116 (0.52%) got an active call. 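Calls depend on retest data that are not deposited; infection was ranked per plate without normalising between plates; the unit of the infection score is not given.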 Raw values are not corrected between plates. Further read-outs or replicates are left out here. Reagent sequences are not shown. Not stated in the record: the amount of reagent, the time to read-out.

Screen: 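Genome-wide fly cell screen for genes dengue virus requires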 (primary screen)
Cells: D.Mel-2 cells from Drosophila
Knock-down reagent: long dsRNA against Drosophila genes
Conditions: infection with dengue virus type 2; dose and infection time not stated
Detection: 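Cells stained for dengue envelope protein and imaged; percent of infected cells per well on duplicate plates, ranked by infection, with stained nuclei counted for cell number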
Scale: infection score: higher = more virus-infected cells; cell count: higher = more cells in the well
Rule for the call: 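Very low infection ranking in both replicate wells (chance probability at most 0.065), then a retest showing infection dropped 1.5-fold or more at p below 0.05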
Calls: active = confirmed: knock-down lowers infection; inactive = not picked or not confirmed

CG1674 [SID104196934] — cell count, replicate 1 = 310; Outcome = inactive
CG1674 [SID104208060] — infection score, replicate 1 = 15.8; cell count, replicate 1 = 5248; Outcome = inactive
Epac [SID104184761] — infection score, replicate 1 = 8.79; cell count, replicate 1 = 6121; Outcome = inactive
Epac [SID104184788] — infection score, replicate 1 = 44; cell count, replicate 1 = 6045; Outcome = inactive
Epac [SID104184789] — infection score, replicate 1 = 7.51; cell count, replicate 1 = 6449; Outcome = inactive
Muc14A [SID104202621] — infection score, replicate 1 = 3.02; cell count, replicate 1 = 6117; Outcome = inactive

Limited to “cell count, replicate 1” (2 entries from above):
CG1674 [SID104208060] = 5248
Epac [SID104184761] = 6121

Continued.
Nab2 [SID104193950] — infection score, replicate 1 = 3.61; cell count, replicate 1 = 6614; Outcome = inactive
Nab2 [SID104205679] — infection score, replicate 1 = 6.48; cell count, replicate 1 = 6514; Outcome = inactive
Obp58b [SID104183953] — infection score, replicate 1 = 3.36; cell count, replicate 1 = 745; Outcome = inactive
GatA [SID104196748] — infection score, replicate 1 = 2.69; cell count, replicate 1 = 6286; Outcome = inactive
Not3 [SID104184700] — infection score, replicate 1 = 7.05; cell count, replicate 1 = 3317; Outcome = inactive
Not3 [SID104205868] — infection score, replicate 1 = 2.07; cell count, replicate 1 = 4590; Outcome = inactive
